A mixed list of measured activities; the numbers were collected in NIAID ChemDB.

All rows: growth or infection tests; organism: Candida albicans; read by: agar; measure: MIC

Neighbouring rows are from separate reports. Blank or dashed fields: not listed here.

smiles	strain	value
O=C(CSc1nnc(-c2ccc3ncccc3c2)o1)Nc1ccc(F)cc1	-	100 µg/mL
COc1ccc(CN2CCN(c3nc(NCCNc4ncnc5c(Br)cc(Br)cc45)nc(NC4CC4)n3)CC2)c(OC)c1OC	MTCC 183	25 µg/mL
COc1ccccc1NC(=S)NNC(=O)c1cc2ccccc2cn1	ATCC 10231	25 µg/mL
CS(=O)(=O)N1CCC(n2cc(-c3nc(-c4ccc(Cl)cc4)n[nH]3)nn2)CC1	-	20 µg/mL
Cc1ccc2nc(NC(=O)CSc3nnc(-c4ccc5ncccc5c4)o3)sc2c1	-	100 µg/mL
Fc1ccc(N2CCN(c3nc(NCCNc4ncnc5c(Br)cc(Br)cc45)nc(NC4CC4)n3)CC2)cc1	MTCC 183	50 µg/mL
C[C@H](N)C(=O)N[C@@H](CB1OC2CC3CC(C3(C)C)[C@@]2(C)O1)Cc1ccccc1	-	≤500 µg/mL
CC(=O)N1CCN(c2nc(Nc3ccc(C#N)c(C(F)(F)F)c3)nc(Oc3cccc4cccnc34)n2)CC1	MTCC 183	100 µg/mL
CS(=O)(=O)N1CCC(n2cc(-c3nc(-c4ccc([N+](=O)[O-])cc4)n[nH]3)nn2)CC1	-	30 µg/mL
N#Cc1ccc(Nc2nc(Oc3cccc4cccnc34)nc(N3CCCCC3)n2)cc1C(F)(F)F	MTCC 183	25 µg/mL
CC(C)N1CCN(c2nc(NCCNc3ncnc4c(Br)cc(Br)cc34)nc(NC3CC3)n2)CC1	MTCC 183	100 µg/mL
CCOc1ccc2nc(NC(=O)CSc3nnc(-c4ccc5ncccc5c4)o3)sc2c1	-	12.5 µg/mL
CC1(C)C2CC3OB(C[C@@H](Cc4ccccc4)NC(=O)[C@@H](N)CCCN=C(N)N)O[C@]3(C)C1C2	-	≤500 µg/mL
CC(=O)N1CCC(n2cc(-c3nc(-c4ccc(C)cc4)n[nH]3)nn2)CC1	-	80 µg/mL
CC(=O)Nc1ccc(NC(=O)CSc2nnc(-c3ccc4ncccc4c3)o2)cc1	-	100 µg/mL
CCN1CCC(n2cc(-c3nc(-c4ccc(OC)cc4)n[nH]3)nn2)CC1	-	60 µg/mL
C[C@@H](B1OC2CC3CC(C3(C)C)[C@@]2(C)O1)[C@@H](Cc1ccccc1)NC(=O)[C@H](Cc1ccccc1)NC(=O)[C@@H](N)CCCCN	-	≤500 µg/mL
Brc1cc(Br)c2ncnc(NCCNc3nc(NC4CC4)nc(N4CCN(c5ccccn5)CC4)n3)c2c1	MTCC 183	100 µg/mL
CC(C)N1CCN(c2nc(Nc3ccc(C#N)c(C(F)(F)F)c3)nc(Oc3cccc4cccnc34)n2)CC1	MTCC 183	100 µg/mL
O=C(CSc1nnc(-c2ccc3ncccc3c2)o1)Nc1nc2ccc(Cl)cc2s1	-	100 µg/mL
COc1ccc(N2CCN(c3nc(NCCNc4ncnc5c(Br)cc(Br)cc45)nc(NC4CC4)n3)CC2)cc1	MTCC 183	50 µg/mL
Cc1nnsc1C(=O)NNC(=S)Nc1ccccc1Br	ATCC 90028	200 µg/mL
O=C(CSc1nnc(-c2ccc3ncccc3c2)o1)Nc1nc2ccccc2s1	-	100 µg/mL
N#Cc1ccc(Nc2nc(Oc3cccc4cccnc34)nc(N3CCN(c4ccccn4)CC3)n2)cc1C(F)(F)F	MTCC 183	6.25 µg/mL
O=C(CSc1nnc(-c2ccc3ncccc3c2)o1)Nc1ccc([N+](=O)[O-])cc1	-	100 µg/mL
Clc1nc(NC2CC2)nc(N2CCN(c3ccccc3)CC2)n1	MTCC 183	50 µg/mL
O=C(NNC(=S)Nc1ccc(F)cc1)c1cccs1	ATCC 10231	400 µg/mL
O=C(CSc1nnc(-c2ccc3ncccc3c2)o1)Nc1nc2ccc(I)cc2s1	-	100 µg/mL
Cc1ccccc1NC(=S)NNC(=O)c1cc2ccccc2cn1	ATCC 90028	50 µg/mL
CC1(C)C2CC3OB([C@H](Cc4ccccc4)[C@@H](Cc4ccccc4)NC(=O)[C@@H](N)CCCCN)O[C@]3(C)C1C2	-	≤500 µg/mL
FC(F)(F)c1cccc(N2CCN(c3nc(NCCNc4ncnc5c(Br)cc(Br)cc45)nc(NC4CC4)n3)CC2)c1	MTCC 183	25 µg/mL